In patent US20230303664A1 (MAX PLANCK GESELLSCHAFT ZUR F RDERUNG DER WISSENSCHAFTEN E V, published 2023):

B1: Re21B09 (VHH)
VHH: QVQLVESGGGLVQPGGSLRLSCAASGFTLDNYAIGWFRQAPGKEREGVSCIRSSDGSTYYADSVKGRFTISKDNAKNTVYLQMNSLKPEDTAVYYCATDGTFNPPCDDLYSWYFPERQGTQVTVSS
B2: Re9G12 (VHH)
VHH: QVQLVESGGGLVQAGGSLRLSCAASGRTFSSYVMGWFRQAPGKEREFVAHISWSGDSTYYADSVKGRFTIFRDNAKNTAYLQMNSLKPEDTAVYYCAADRGASYYYTWASEYNYWGQGTQVTVSS
B3: Re5D06R28D (VHH)
VHH: QVQLVESGGGLVQPGGSLRLSCAISGSTLDYYAMGWFREAPGKEREGVARWRNNDGSTNYADSVKGRFTMSRDNAKDTYYLQMNSLEPEDTADYYCAYGPLTKYGDEWHWPYEYDYWGQGTQVTVSS
B4: Re9G05 (VHH)
VHH: QVQLVESGGGLVQPGGSLRLSCAVSGNISSITAWDWHRQAPGKQRELVAHITSRGDTMYLDSVKGRFAISRDHAKNTLSLQMNSLKPEDTAVYYCYLRTFGPPYDYWGQGTQVTVSS
B5: Re11E11 (VHH)
VHH: QVQLVESGGGSVEAGGSLRLSCAASGRTFNNYNIVWFRQAPGKEREFVAAINWNGGSTSYANSVKGRFAVSRDNAKNTVYLQMNNLKHEDTAEYLCYTVGPEGDYWGQGTQVTVSS
B6: Re11C10 (VHH)
VHH: B5 VHH with F29L, N30D, I34A, G56S, S57N, A61G
B7: Re6D09 (VHH)
VHH: B5 VHH with I34M, N62A, R72I, V79L
B8: Re7A01 (VHH)
VHH: QVQLVESGGGLVQAGGSLRLSCAASGRTFSSYAMGWFRQAPGKEREFVATISFSGSTSYAGHVKGRFTISRDNAKNTVYLQMNSLKPEDTAVYYCHAVTRASDQDGGMDYWGQGTQVTVSS
B9: Re11G09 (VHH)
VHH: QVQLVESGGGLVHTGGSLRLSCAASGSIFNIYRMAWYRQAPGKQREKVAIITTYGLTDYADSVKGRFTISRDNAKNTTYLQMNSLKPDDTAVYYCNTDPPDLGPGYWGQGTQVTVSS
B10: Re8E12 (VHH)
VHH: QVQLVESGGGSVQPGGSLRLSCKVSGFTSDVDLRNYLVSWNRQAPGKERELVAAITPTVISGGNTNYADSVKGRFTISRDYSKSTVYLQMNSLNPEDTAVYYCKVGVYWGQGTQVTVSS
B11: Re8F03 (VHH)
VHH: B10 VHH with S11L, R19T, F27L, D30Y, N41Y, A44G, V59A, S61T, N64S, Y102S
B12: Re5C01 (VHH)
VHH: QVQLVESGGGLVQAGGSLRLSCGVSGRTFSSYAMGWFRQAPGKEREFVATISWSGGTTNYAHSVKGRFTISRDNAKNTVYLQMNSLKVEDTAVYYCYAVSSGSDYDGGMDYWGKGTQVTVSS
B13: Re11F07 (VHH)
VHH: QVQLVESGGGLVQAGGSLRLSCAASGRAFSSGTMGWFRQAPGKEREFVATISWSGGSTSYARSVKGRFTISGDNAENTVYLQMNSLKPEDTAVYYCYAVSSGSDYDGGMDYWGKGTLVTVSS
B14: Re11F11 (VHH)
VHH: QVQLVESGGGLVQPGGSLRLSCAASGFTFSNYHMSWYRQAPGKGRELVADITSGGDYTHYADSVKGRFTVSRDNPKNTLYLQMNSLKPEDTAVYHCHVRIFGPGFPVDYRGQGTQVTVSS
B15: Re8C06 (VHH)
VHH: QVQLVESGGGLVQAGGSLRLSCAASGRTDTIYNMGWFRQAPGKEREFVAAISWSDGKTTFADSVKGRFTISRDNAKNTVYLQMNSLKPEDTANYYCAAKAFLVAGRSLEEYDYSGQGTQVTVSS
B16: Re9C07 (VHH)
VHH: QVQLVESGGGLVQAGGSLRLSCAASGRTFSRYAMGWFRQAPGKEREFVAAITWNADTTYYADSVKGRFTISRDNAKNTVYLQMNSLKPEDTAVYYCAAGGNHYYSRSYYSSLEYDHWGQGTQVTVSS
B17: Re5B06 (VHH)
VHH: QVQLVESGGGLVQPGGSLRLSCAASGSIRSIYATVWFRQAPGKEHEWVGSITSSNVTTYADSVKGRFTISRDNAKKTVYLQMNSLKPEDTALYYCNVHFASEYSDYAQIQGQGTQVTVSS
B18: Re22D04 (VHH)
VHH: QVQLVESGGGLVQTGGSLRLSCAASGRTFSDDAMGWFRQAPGKERDVVAALGWAGVSTYYADSVKGRFGISRDNAKNTVYLQMSSLKPEDTAVYYCAAAPSVAHARLGEWAYWGKGTQVTVSS
B19: Re25H10 (VHH)
VHH: QVQLVESGGGLVQPGGSLRLSCAASGFTFSSSAMSWARQAPGKGLEWVSTISEDGSTYYADSMKGRFTISRDNAKNTVYLQMNSLKPEDTAAYYCATSTEPRTVVAGWGDYLGQGTQVTVSS

The binders below were run against SARS-CoV-2 spike protein of the patient-derived virus strain (D614G) (SARS-CoV-2, UniProt P0DTC2) (assay: not given).
B1: binds. B2: binds. B3: binds. B4: binds. B5: binds. B6: binds. B7: binds. B8: binds. B9: binds. B10: binds. B11: binds. B12: binds. B13: binds. B14: binds. B15: binds. B16: binds. B17: binds. B18: binds. B19: binds.

The binders below were run against SARS-CoV-2 spike protein (SARS-CoV-2, UniProt P0DTC2 14-1273) (assay: IF, spike-transfected HeLa cells).
B7: binds.

Changes are numbered by the printed parent chain.
